Measured values from US20220213176A1 (SHANGHAITECH UNIVERSITY, published 2022).

B1: S-D4 (antibody, V domains shown)
VH: QVQLQESGGGVVQPGRSLRLSCEVSGFTFSDYGMHWVRQAPGKGLEWVAVIWSEGSTEYYADSVKGRFTISRDNSKDTLYLQMNSLRAEDTAVYYCARPGYPTSTDRSPAAAGARQYYYYGMDVWGQGTTVTVSS
VL: NFMLTQPHSVSESPGKTVTISCTRSGGSGAANYVQWYQQRPGSSPTTLIYEDSRRPPGVPDRFSGSVDTSSNSASLTISGLQTEDEADYYCQSYDSSNHVVFGGGTKLTVLG
notes: also called S-D4 dimer; S-D4 IgG4
B2: S-E6 (antibody, V domains shown)
VH: QVTLRESGPGLVKPSETLSLTCAVSGGSLSSVNYYWSWIRQHPGKGLEWIGYIYYSGSTNYNPSLKSRVTMSLDTSKNQFSLKLSSVTAADTAVYYCATPGAIMGALHIWGQGTLVTVSS
VL: QAVLTQPSSASSTPGQRVIISCSGSSSNIGSNTVSWYQQVPGAAPKLLIYFDYRRPSGVPDRFSGTRSGTSASLGISGLQSEDEADYYCAAWDDSLSAWVFGRGTKLTVLG
notes: also called S-E6 dimer; dimer S-E6
B3: S-B8 (antibody, V domains shown)
VH: QVQLVQSGGGLIQPGGSLRLSCAASGFTVSLSHMNWVRQAPGKGLEWVSITYGDGNSDYADSVKGRFTISRDNSKNTLYLQMNSLRAEDTAVYYCAREYYYGMDVWGQGTTVTVSS
VL: DIVMTQSPDSLAVSLGERATINCKSSQSVLYSSNNKNYLAWYQQKPGQPPKLLIYWASTRESGVPDRFSGSGSGTDFTLTISSLQAEDVAVYYCQQYYSLPLTFGGGTKLEIKR
notes: also called S-B8 dimer

Key:
[1] = target: B.1.1.7 spike (SARS-CoV-2); assay: cell-based or functional assay
[2] = target: T1, B.1.1.7 spike (SARS-CoV-2); assay: […] NC (secondary only) MFI […] [cont'd) j]
T1 construct: also called spike of U.K. variant; authentic SARS-CoV-2 UK variant (B.1.1.7) virus

Row | Binder | NT50, authentic B.1.1.7 virus neutralization [1] [nM] | MFI [2]
1 | B1 | 1.88 | 
2 | B2 | 1.15 | 
3 | B3 |  | 725000
